Compound potency records, mixed from different reports. Data source: NIAID ChemDB in PubChem.

Common to all: host cell toxicity; cells: TZM-bl; endpoint: CC50

CCn is the concentration with n% toxicity to the cells. Lines come from different laboratories, so protocols vary.

{"SMILES": "Cc1cc2c(C(C)C)c(C)c(O)c(C=O)c2c(O)c1-c1c(C)cc2c(C(C)C)c(O)c(O)c(C=O)c2c1O", "method": "MTT", "value": "9.74 µM"}
{"SMILES": "CCOC(=O)C(O)(c1c[nH]c2ccccc12)C(F)(F)F", "method": "MTT", "value": "285 µM"}
{"SMILES": "Cc1nnc(C(=O)NC(C)(C)c2nc(C(=O)NCc3ccc(F)cc3)c(O)c(=O)n2C)o1", "method": "XTT", "value": ">20 µM"}
{"SMILES": "CC[C@@H](C)[C@@H](N/C=C1\\C(=O)C(O)C(C(C)C)=C2C=C(C)C(c3c(C)cc4c(C(C)C)c(O)c(O)c(C=N[C@H](C(=O)O)[C@@H](C)CC)c4c3O)=C(O)C21)C(=O)O.[Na+].[Na+]", "method": "MTT", "value": "62.34 µM"}
{"SMILES": "COC(=O)C(N)(c1c[nH]c2ccc(OC)cc12)C(F)(F)F", "method": "MTT", "value": "132 µM"}
{"SMILES": "CCC(Cl)C1(c2ccc(F)cc2)OC(=O)c2c(Br)c(Br)c(Br)c(Br)c21", "method": "MTT", "value": "130 µM"}
{"SMILES": "Cc1cn([C@H]2C[C@H](N=[N+]=[N-])[C@@H](CO)O2)c(=O)[nH]c1=O", "method": "MTT", "value": "872 µM"}
{"SMILES": "COC(=O)c1cccc2[nH]cc(C(O)(C(=O)OC)C(F)(F)F)c12", "method": "MTT", "value": "199 µM"}
{"SMILES": "COc1cccc(/C=C/c2cc(Cl)c3ccccc3n2)c1OC", "method": "MTT", "value": "55.56 µM"}
{"SMILES": "CC1=CC2=C(C(C)C)C(O)C(=O)/C(=C\\NC(C)(C)C(=O)O)C2C(O)=C1c1c(C)cc2c(C(C)C)c(O)c(O)c(C=NC(C)(C)C(=O)O)c2c1O.[Na+].[Na+]", "method": "MTT", "value": "65.1 µM"}
{"SMILES": "COC(=O)C(N)(c1c[nH]c2ccc(F)cc12)C(F)(F)F", "method": "MTT", "value": "103 µM"}
{"SMILES": "O=C(O)c1ccc(C2=N/C(=C/c3c(O)n(CCc4ccccc4)c(=S)[nH]c3=O)C=C2)cc1O", "method": "XTT", "value": ">20 µM"}
{"SMILES": "CCOC(=O)C(O)(c1c(C)[nH]c2ccccc12)C(F)(F)F", "method": "MTT", "value": "243 µM"}
{"SMILES": "CC(Cl)C1(c2ccc(F)cc2)OC(=O)c2ccccc21", "method": "MTT", "value": "276 µM"}
{"SMILES": "CCOC(=O)C(N)(C1=CNC2C(C)=CC=CC12)C(F)(F)F", "method": "MTT", "value": ">133 µM"}
{"SMILES": "Cc1ccc([C@]2(CCl)OC(=O)c3ccccc32)cc1", "method": "MTT", "value": "146.7 µM"}
{"SMILES": "CCOC(=O)C(N)(C1=CNC2C=C(C#N)C=CC12)C(F)(F)F", "method": "MTT", "value": "64.3 µM"}
{"SMILES": "O=C(O)c1ccc(C2=N/C(=C/c3c(O)n(Cc4ccccc4)c(=S)[nH]c3=O)C=C2)cc1O", "method": "XTT", "value": ">20 µM"}
{"SMILES": "CCOC(=O)C(O)(c1c[nH]c2cccc([N+](=O)[O-])c12)C(F)(F)F", "method": "MTT", "value": "122 µM"}
{"SMILES": "CCOC(=O)C(N)(c1cn(C)c2ccccc12)C(F)(F)F", "method": "MTT", "value": ">133 µM"}
{"SMILES": "CCOC(=O)C(O)(c1cn(C)c2ccccc12)C(F)(F)F", "method": "MTT", "value": "232 µM"}
{"SMILES": "Cc1ccc(-c2ccc3c(c2)C=C(C(=O)Nc2ccc(C[N+](C)(C)C4CCOCC4)cc2)CCC3)cc1", "method": "MTT", "value": "134 µM"}
{"SMILES": "O=C1O[C@@](CCl)(c2ccccc2)c2ccccc21", "method": "MTT", "value": "154.6 µM"}
{"SMILES": "COC(=O)C(N)(c1c[nH]c2ccc(Br)cc12)C(F)(F)F", "method": "MTT", "value": "114 µM"}
{"SMILES": "Cc1cc([N+](=O)[O-])c(C)c2c1[nH]c1cc(Cl)ccc12", "value": "22.7 µM"}
{"SMILES": "CCOC(=O)C(O)(c1c[nH]c2ccc(C(=O)OC)cc12)C(F)(F)F", "method": "MTT", "value": "135 µM"}
{"SMILES": "Cc1cn([C@H]2C[C@H](N=[N+]=[N-])[C@@H](CO)O2)c(=O)[nH]c1=O", "method": "MTT", "value": "2890 µM"}
{"SMILES": "c1cc(CN2CCCNCCNCCCNCC2)ccc1CN1CCCNCCNCCCNCC1", "value": ">1000 µM"}
{"SMILES": "CCC(Cl)C1(c2ccc(F)cc2)OC(=O)c2ccc(Cl)cc21", "method": "MTT", "value": "237 µM"}
{"SMILES": "Clc1cc(/C=C/c2cccs2)nc2ccccc12", "method": "MTT", "value": "52.62 µM"}
{"SMILES": "C[C@H]1CCCC[C@@H]1Oc1cc(CCc2ccccc2)[nH]c(=O)c1I", "method": "XTT / absorbance", "value": ">300 µM"}
{"SMILES": "Fc1ccc(/C=C/c2cc(Cl)c3ccccc3n2)c(C(F)(F)F)c1", "method": "MTT", "value": "29.06 µM"}
{"SMILES": "O=C1OC(C(Cl)c2ccccc2)c2ccccc21", "method": "MTT", "value": "293 µM"}
{"SMILES": "COC(=O)C(O)(c1c[nH]c2ccc([N+](=O)[O-])cc12)C(F)(F)F", "method": "MTT", "value": "274 µM"}
{"SMILES": "CCOC(=O)C(N)(C1=CNC2C=C(F)C=CC12)C(F)(F)F", "method": "MTT", "value": ">131 µM"}
{"SMILES": "CC(C)[C@H](N)C(=O)O.[Na+]", "method": "MTT", "value": "49.29 µM"}
{"SMILES": "CCOC(=O)C(O)(c1c[nH]c2ccc(Cl)cc12)C(F)(F)F", "method": "MTT", "value": "138 µM"}

For reference, 2 entries again:

| SMILES | method | value |
|---|---|---|
| CC(Cl)C1(c2ccc(F)cc2)OC(=O)c2ccccc21 | MTT | 276 µM |
| Cc1cn([C@H]2C[C@H](N=[N+]=[N-])[C@@H](CO)O2)c(=O)[nH]c1=O | MTT | 872 µM |